Results: US20240401020A1, “METHODS FOR PREVENTING INTER-DROPLET TRANSFER OF A FLUORESCENT PRODUCT IN AQUEOUS DROPLETS BY FORMING A SOLUBLE COMPLEX WITH CYCLODEXTRIN” (PATTERN BIOSCIENCE, INC., priority 2021, published 2024)

Experiments:
Assay type in all cases: cell-based
Conditions in all cases: 2 mM cyclodextrin vs no cyclodextrin, picoliter droplets, 38° C., 6 hours
[1] = system: droplets containing Klebsiella pneumoniae cells; assay: Droplet array fluorescence leakage test with/without cyclodextrin, Klebsiella pneumoniae
[2] = system: droplets containing a first strain of Serratia marcescens cells; assay: Droplet array fluorescence leakage test with/without cyclodextrin, Serratia marcescens first strain
[3] = system: droplets containing Escherichia coli cells; assay: Droplet array fluorescence leakage test with/without cyclodextrin, Escherichia coli

cyclodextrin
leakage of the fluorescent marker ([1]; FIG. 23A-C): decreased
intensity of fluorescence of the individual droplets ([1]; FIG. 23B/23C): significantly higher
leakage of the fluorescent marker ([2]; FIG. 25A-C): decreased
intensity of fluorescence of the individual droplets ([2]; FIG. 25B/25C): significantly higher
leakage of the fluorescent marker ([3]; FIG. 24A-C): decreased
intensity of fluorescence of the individual droplets ([3]; FIG. 24B/24C): significantly higher
